Results reported in PMC3878761, “Interactions of peptide triazole thiols with Env gp120 induce irreversible breakdown and inactivation of HIV-1 virions” (Retrovirology, 2013).

Tested on: HIV-1 BaL pseudovirus infection of HOS CD4^-ve CCR5^+ve cells
Assay: enhancement of infection of CD4 negative cells
Conditions: n=3

Compound: CC[C@H](C)[C@H](NC(=O)[C@@H](N)CCCNC(=N)N)C(=O)N[C@@H](CC(N)=O)C(=O)N[C@@H](CC(N)=O)C(=O)N[C@H](C(=O)N1C[C@@H](n2cc([C]34[CH]5[CH]6[CH]7[CH]3[Fe]6754389%10[CH]4[CH]3[CH]8[CH]9[CH]4%10)nn2)C[C@H]1C(=O)N[C@@H](Cc1c[nH]c2ccccc12)C(=O)N[C@@H](CO)C(=O)N[C@@H](CCC(=O)O)C(=O)N[C@@H](C)C(=O)N[C@@H](CCSC)C(=O)N[C@@H](CCSC)C(=O)NCCC(=O)N[C@@H](CCC(N)=O)C(=O)NCCC(=O)N[C@@H](CS)C(N)=O)[C@@H](C)CC (stereo partly shown) [KR13]
- enhancement of infection of CD4 negative cells: no enhancement of infection was observed
